A mixed list of measured activities; the numbers were collected in NIAID ChemDB.

Common to all: enzyme or target tests; agent: HIV-1; protein: Reverse transcriptase

ICn is the concentration giving n% inhibition.

Cc1cc(-c2ccccc2)nc(N2C(=O)CSC2c2c(Cl)cccc2Cl)n1 ; measure: IC50 ; method: absorbance ; value: ~100 µg/mL
CC(C)=CCC[C@@](C)(O)C1CC[C@]2(C)C1CC[C@@H]1[C@@]3(C)CC[C@H](O)C(C)(C)[C@@H]3CC[C@]12C ; measure: IC50 ; method: nucleotide incorporation ; value: >45 µM
CCCc1cc(=O)oc2c3c(c4c(c12)OC(C)(C)C=C4)O[C@H](C)C[C@@H]3O ; measure: IC50 ; changes: RT-G138A ; method: nucleotide incorporation / radiometric ; value: 5.97 µM
O=C1c2ccccc2C(=O)c2c1ccc1[nH]c([C@H]3NC[C@@H](O)[C@H]3O)nc21 ; measure: IC50 ; method: RT activity / absorbance ; value: 40.86 µM
Cc1nnc2ccc(N3CCc4ccccc4C3)nn12 ; measure: IC50 ; strain: IIIB ; method: RT activity / fluorescence ; value: 15.9 µM
Oc1ccccc1C=NCCN=Cc1ccccc1O ; measure: IC50 ; method: ELISA ; value: >6 µM
O=C1c2ccccc2C(=O)c2c1ccc1[nH]c(CNCCCCN3[C@@H](CO)[C@@H](O)[C@H](O)[C@@H]3CO)nc21 ; measure: IC50 ; method: RT activity / absorbance ; value: 33.13 µM
CCc1cc(NCc2cc(C)c(C)cc2OC)c(=O)[nH]c1C ; measure: IC50 ; method: RT activity ; value: 0.01 µM
CC(=O)Nc1c(Sc2cc(C)cc(C)c2)c(C)c[nH]c1=O ; measure: IC50 ; method: nucleotide incorporation ; value: >40 µM
Cc1cc(N2C(=O)CSC2c2c(F)cccc2Cl)nc(C)n1 ; measure: IC50 ; method: absorbance ; value: ~100 µg/mL
CCOC(=O)c1[nH]c2ccccc2c1S(=O)(=O)c1cc(Cl)ccc1N ; measure: IC50 ; strain: IIIB ; method: RT activity ; value: 3.5 µM
O=C1CSC(c2c(F)cccc2F)N1c1nc(-c2ccccc2)cc(-c2ccccc2)n1 ; measure: IC50 ; method: absorbance ; value: >100 µg/mL
CCOC(=O)c1[nH]c2ccc(Cl)cc2c1S(=O)(=O)c1cc(Cl)ccc1N ; measure: IC50 ; strain: IIIB ; method: RT activity ; value: 4.7 µM
COC(=O)c1cc(O)c(O)c(O)c1 ; measure: IC50 ; method: ELISA ; value: 80.1 µM
CCN1c2ncc(CCc3ccncc3)cc2C(=O)N(C)c2ccc(Cl)nc21 ; measure: IC50 ; changes: RT-K103N ; strain: IIIB ; method: RT activity ; value: 0.12 µM
CS(=O)(=O)c1ccc(NC(=O)Cn2ccc(C(F)(F)F)c(Oc3cc(Cl)cc(C#N)c3)c2=O)cc1 ; measure: IC50 ; method: RT activity / absorbance ; value: 5.2 µM
NCCCNC(=O)c1ccc(NC(=O)CSC(=O)N2CCCc3cc(Cl)cc(Cl)c32)c(Cl)c1 ; measure: IC50 ; changes: WT ; method: scintillation proximity ; value: 0.002 µM
O=C(CCCCCCCCC(=O)Nc1ccc(S(=O)(=O)O)c2cccc(S(=O)(=O)O)c12)Nc1ccc(S(=O)(=O)O)c2cccc(S(=O)(=O)O)c12 ; measure: IC50 ; method: RT activity ; value: ~50 µM
CCN1c2ccccc2N(C)C(=O)c2cnn(-c3ccccc3)c21 ; measure: IC50 ; strain: IIIB ; method: nucleotide incorporation / radiometric ; value: 30 µM
[N-]=[N+]=Nc1ccc(C(=O)CSc2nc3c(ncn3[C@H]3C[C@H](O)[C@@H](COP(=O)(O)OP(=O)(O)OP(=O)(O)O)O3)c3nccn23)cc1 ; measure: Ki ; method: radiometric ; value: 10 µM
Cc1cc(N2C(=O)CSC2c2c(F)cccc2F)nc(C)n1 ; measure: IC50 ; method: absorbance ; value: <100 µg/mL
CCc1c(C)[nH]c(=O)c(N)c1Sc1cc(C)cc(C)c1 ; measure: IC50 ; method: nucleotide incorporation ; value: 0.195 µM
Cc1cn([C@H]2CC[C@@H](COP(=O)(O)OP(=O)(O)OP(=O)(O)O)[C@@H]2F)c(=O)[nH]c1=O ; measure: IC50 ; value: 200 µg/mL
CC(C)=CCC[C@@H](C)[C@@H]1CC[C@]2(C)C3=CC[C@H]4C(C)(C)[C@@H](O)CC[C@]4(C)C3=CC[C@@]12C ; measure: IC50 ; method: nucleotide incorporation ; value: 3.3 µM
CSCSc1nc(Cc2ccccc2)c(C(C)C)c(=O)[nH]1 ; measure: Ki ; method: scintillation proximity ; value: 0.56 µM
CNc1ccc(-c2nc(=O)n(CC(=O)N3CCCC3)c3c2oc2ncc(-c4cnn(C)c4)cc23)cn1 ; measure: IC50 ; method: PicoGreen / fluorescence ; value: 0.07 µM
O=c1cc(Cc2ccccc2)nc(SCCCCO)[nH]1 ; measure: Ki ; changes: RT-Y181I ; value: 516 µM
Cc1cnc(=O)n([C@H]2C[C@H](F)[C@@H](CO)O2)c1 ; measure: IC50 ; value: 3.6 µM
C[C@H]1C2(O)CCC3C1(CCC1[C@@]3(C)CC[C@@]3(C)C4C[C@](C)(C(=O)O)CC[C@]4(C)CC[C@]13C)CO2 ; measure: IC50 ; strain: IIIB ; method: RT activity ; value: 100 µg/mL
Cc1cc(C(F)(F)F)nc(N2C(=O)CSC2c2c(F)cccc2Cl)n1 ; measure: IC50 ; method: absorbance ; value: ~10 µg/mL
NCCCCNc1nc(Cc2ccccc2)cc(=O)[nH]1 ; measure: Ki ; changes: RT-Y181L ; value: >1000 µM
Nc1ncnc2c1ncn2[C@@H]1O[C@H](COP(=O)(O)O[C@@H]2[C@H](O)[C@@H](COP(=O)(O)O[C@@H]3[C@H](O)[C@@H](COP(=O)(O)O)O[C@H]3n3cnc4c(N)ncnc43)O[C@H]2n2cnc3c(N)ncnc32)[C@@H](O)[C@H]1O ; measure: IC50 ; strain: IIIB ; value: >10 µM
N#Cc1cc(Cl)cc(Oc2cc(OCC(=O)c3ccc(Oc4ccc(OCC(=O)O)cc4)cc3)ccc2Cl)c1 ; measure: IC50 ; method: RT activity / ELISA / absorbance ; value: 0.36 µM
Cc1c(Cc2ccccc2)nc(NCCCCN)[nH]c1=O ; measure: Ki ; changes: RT-V106A ; value: >1000 µM
O=S(=O)(O)c1cccc2ccc(OS(=O)(=O)c3cccc4c(S(=O)(=O)Oc5ccc6cccc(S(=O)(=O)O)c6c5)cccc34)cc12 ; measure: IC50 ; method: RT activity ; value: <50 µM
Nc1nc2c(ccn2[C@H]2C[C@H](F)[C@@H](COP(=O)(O)OP(=O)(O)OP(=O)(O)O)O2)c(=O)[nH]1 ; measure: IC50 ; method: RT activity ; value: 0.27 µM
CSc1ncc2c(n1)N(C(C)C)c1ccccc1N(C)C2=O ; measure: IC50 ; strain: IIIB ; method: nucleotide incorporation / radiometric ; value: >30 µM
Nc1ncnc2c1ncn2C1OC(COP(=O)(O)OC2C(O)C(COP(=O)(O)OC3C(O)C(CO)OC3n3cnc4c(N)ncnc43)OC2n2cnc3c(N)ncnc32)CC1O ; measure: IC50 ; strain: IIIB ; value: >10 µM
CCC(=O)Nc1c(Sc2cc(C)cc(C)c2)c(C)c[nH]c1=O ; measure: IC50 ; method: nucleotide incorporation ; value: >40 µM
O=C1c2ccccc2C(=O)c2c1ccc1[nH]c([C@H]3O[C@H](CO)[C@H](O)[C@H]3O)nc21 ; measure: IC50 ; method: RT activity / absorbance ; value: 8.51 µM
CCc1cn([C@H]2C[C@H](F)[C@@H](CO)O2)c(=O)[nH]c1=O ; measure: IC50 ; value: 7.5 µM
O=C1c2ccccc2C(=O)c2c1ccc1[nH]c(CNCCCCCCN3[C@@H](CO)[C@@H](O)[C@H](O)[C@@H]3CO)nc21 ; measure: IC50 ; method: RT activity / absorbance ; value: 31.12 µM
Nc1cnc2c(c1)CN(c1nn3c(C4CC4)nnc3c3ccccc13)CC2 ; measure: IC50 ; strain: 98US_MSC5016 ; method: RT activity / fluorescence ; value: 21.7 µM
C[n+]1ccc(-c2c3nc(c(-c4cc[n+](C)cc4)c4ccc([nH]4)c(-c4cc[n+](C)cc4)c4nc(c(-c5cc[n+](C)cc5)c5ccc2[nH]5)C=C4)C=C3)cc1 ; measure: IC50 ; method: ELISA ; value: >6 µM
CC(=O)O[C@H]1C[C@](C)(O)/C=C/C[C@@H](C)/C=C/[C@@]2(C)CC[C@@H](C(C)(C)OC(C)=O)[C@H]12 ; measure: IC50 ; method: nucleotide incorporation / radiometric ; value: >40 µM
Cc1cc(C#CCCCCCCC(=O)NCc2cn(C3C[C@H](O)[C@@H](COP(=O)(O)OP(=O)(O)OP(=O)(O)O)O3)c(=O)[nH]c2=O)cc(C)c1Oc1ccnc(Nc2ccc(C#N)cc2)n1 ; measure: IC50 ; method: nucleotide incorporation ; value: 0.006 µM
O=c1ccn([C@H]2C[C@H](F)[C@@H](CO)O2)c(=O)[nH]1 ; measure: IC50 ; value: 0.07 µM
CN1C(=O)c2cncnc2N(C)c2ccccc21 ; measure: IC50 ; strain: IIIB ; method: nucleotide incorporation / radiometric ; value: >30 µM
C=Cc1cc(N(CC)CC)nc(S(=O)(=O)Cc2ccc(OC)cc2)n1 ; measure: IC50 ; method: nucleotide incorporation / radiometric ; value: 407 µM
Nc1ncnc2c1ncn2[C@@H]1O[C@H](COP(=O)([O-])O)[C@@H](O)[C@H]1OP(=O)([O-])OC[C@@H]1C[C@@H](OP(=O)([O-])OC[C@@H]2C[C@@H](O)[C@H](n3cnc4c(N)ncnc43)O2)[C@H](n2cnc3c(N)ncnc32)O1 ; measure: IC50 ; strain: IIIB ; value: >10 µM
CCOC(=O)c1c(C(C)C)c(C#N)c(=N)n2ccccc12 ; measure: IC50 ; strain: LAV ; method: RT activity ; value: 70 µM
CCOCn1c(Sc2ccccc2)c(CC)c(=O)[nH]c1=O ; measure: IC50 ; changes: RT-Y188L ; method: nucleotide incorporation ; value: >50 µM
O=C(CCCCCCCCC(=O)Nc1cc(S(=O)(=O)O)cc2cc(S(=O)(=O)O)cc(O)c12)Nc1cc(S(=O)(=O)O)cc2cc(S(=O)(=O)O)cc(O)c12 ; measure: IC50 ; method: RT activity ; value: <50 µM
Cc1nc(N2C(=O)CSC2c2c(F)cccc2F)nc(C)c1C ; measure: IC50 ; method: absorbance ; value: <10 µg/mL
C=C(C)[C@@H]1CC[C@]2(CO)CC[C@]3(C)[C@H](CC[C@@H]4[C@@]5(C)CC[C@H](O)C(C)(C)[C@@H]5CC[C@]43C)[C@@H]12 ; measure: IC50 ; method: nucleotide incorporation ; value: 14 µM
Nc1ncnc2c1ncn2C1OC(COP(=O)(O)OC2C(O)C(COP(=O)(O)OC3CC(CO)OC3n3cnc4c(N)ncnc43)OC2n2cnc3c(N)ncnc32)CC1O ; measure: IC50 ; strain: IIIB ; value: >10 µM
Nc1cc2c(c(N3CCOCC3)c1)CCN(c1nn3c(C4CC4)nnc3c3ccccc13)C2 ; measure: IC90 ; strain: 98US_MSC5016 ; method: RT activity / fluorescence ; value: 57.8 µM
Cc1cc(N2C(=O)CSC2c2c(Cl)cccc2Cl)nc(C)n1 ; measure: IC50 ; method: absorbance ; value: 10–100 µg/mL
CC(C)(O/N=C(\C(=O)NCC(O)O)c1csc(N)n1)C(=O)O ; measure: IC50 ; method: RT activity ; value: <50 µg/mL
O=S(=O)(O)c1cc(S(=O)(=O)O)c2cc(NS(=O)(=O)c3ccc(-c4ccc(S(=O)(=O)Nc5ccc6cc(S(=O)(=O)O)cc(S(=O)(=O)O)c6c5)cc4)cc3)ccc2c1 ; measure: IC50 ; method: RT activity ; value: <50 µM
Cc1cc(C(F)(F)F)nc(N2C(=O)CSC2c2c(F)cccc2F)n1 ; measure: IC50 ; method: absorbance ; value: >100 µg/mL
Nc1ncnc2c1ncn2C1OC(COP(=O)(O)OC2CC(COP(=O)(O)OC3C(O)C(CO)OC3n3cnc4c(N)ncnc43)OC2n2cnc3c(N)ncnc32)CC1O ; measure: IC50 ; strain: IIIB ; value: >10 µM
NC(=O)c1[nH]c2ccc(Cl)cc2c1S(=O)(=O)c1ccccc1 ; measure: IC50 ; strain: IIIB ; method: RT activity ; value: 0.3 µM
CCN1c2ccccc2N(C)C(=O)c2cnc(-c3ccccc3)nc21 ; measure: IC50 ; strain: IIIB ; method: nucleotide incorporation / radiometric ; value: >30 µM
Cc1cn([C@H]2C[C@H](F)[C@@H](CO)O2)c(=O)[nH]c1=S ; measure: IC50 ; value: 0.2 µM
CC(=O)Nc1cc2c(cc1OC(F)(F)F)CCN(c1nn3c(C)nnc3c3ccccc13)C2 ; measure: IC90 ; strain: 98US_MSC5016 ; method: RT activity / fluorescence ; value: 1.15 µM
CCN1c2ccccc2N(C)C(=O)c2cnc(C)nc21 ; measure: IC50 ; strain: IIIB ; method: nucleotide incorporation / radiometric ; value: >30 µM
Nc1ncnc2c1ncn2[C@@H]1O[C@H](COP(=O)([O-])O[C@@H]2C[C@@H](COP(=O)([O-])O)O[C@H]2n2cnc3c(N)ncnc32)[C@@H](O)[C@H]1OP(=O)([O-])OC[C@@H]1C[C@@H](O)[C@H](n2cnc3c(N)ncnc32)O1 ; measure: IC50 ; strain: IIIB ; value: >10 µM

7 of the rows above, restated:

smiles,measure,changes,strain,method,value
CCN1c2ncc(CCc3ccncc3)cc2C(=O)N(C)c2ccc(Cl)nc21,IC50,RT-K103N,IIIB,RT activity,0.12 µM
NCCCCNc1nc(Cc2ccccc2)cc(=O)[nH]1,Ki,RT-Y181L,-,-,>1000 µM
CCOC(=O)c1[nH]c2ccc(Cl)cc2c1S(=O)(=O)c1cc(Cl)ccc1N,IC50,-,IIIB,RT activity,4.7 µM
O=c1ccn([C@H]2C[C@H](F)[C@@H](CO)O2)c(=O)[nH]1,IC50,-,-,-,0.07 µM
Cc1cc(N2C(=O)CSC2c2c(Cl)cccc2Cl)nc(C)n1,IC50,-,-,absorbance,10–100 µg/mL
O=C1c2ccccc2C(=O)c2c1ccc1[nH]c([C@H]3NC[C@@H](O)[C@H]3O)nc21,IC50,-,-,RT activity / absorbance,40.86 µM
CS(=O)(=O)c1ccc(NC(=O)Cn2ccc(C(F)(F)F)c(Oc3cc(Cl)cc(C#N)c3)c2=O)cc1,IC50,-,-,RT activity / absorbance,5.2 µM

Lines come from different laboratories, so protocols vary. Two numbers with a dash give a range or band. Blank or dashed fields: not listed here.